A mixed list of measured activities; the numbers were collected in NIAID ChemDB.

Shared fields: tests in culture; agent: Mycobacterium tuberculosis

MIC50, MIC90 and the like: level of inhibition, or share of isolates inhibited. MIC bound comes from a single tested concentration. ECn is the concentration giving n% inhibition of infection, replication or growth. Percent inhibition refers to the dose given; in toxicity tests it is the harm to the cells. Blank or dashed fields: not listed here. Conditions beyond the fields shown may differ between rows.

compound	strain or isolate	endpoint	conditions	method	tested at	mutations	result
OC(c1cc(-c2ccccc2)nc2c1ccc1ccccc12)C1CCCCN1	H37Ra	MIC					12.5 µM
CCOC(=O)/C(C#N)=N/Nc1ccc(C(=O)OCC)c(S(=O)(=O)NC(=O)Nc2nccc(C)n2)c1	H37Rv	MIC					>80 µg/mL
COC(=O)[C@@H]1[C@H](O)[C@H](C)C(O)[C@H](C)/C=C\C=C(/C)C(=O)Nc2c(C)c(OC(C)=O)c3c(c2O)C(=O)C(C)=C2OCOC(=C23)/C(C)=C/[C@@](C)(O)[C@H](O)[C@@H](C)[C@H]1OC(C)=O	H37Ra	MIC					6.25 µM
COC1(OC)C(=S)N(C(C)C)C(=S)N1C(C)C	H37Rv	inhibition		BACTEC	12.5 µg/mL		80%
O=C(N/N=C/c1ccc(Oc2cc(Cl)cc(Cl)c2)cc1)c1nc2ccc([N+](=O)[O-])cc2[nH]1	H37Rv	MIC		resazurin			12.5 µg/mL
COc1ccnc(NC(=O)NS(=O)(=O)c2cc(C(=O)NC(C)C)ccc2Br)n1	H37Rv	MIC					>80 µg/mL
CCOC(=O)c1cnc(C(C)(C)C)[nH]1	H37Rv	inhibition			6.25 µg/mL		0%
CC[C@H]1OC(=O)[C@H](C)[C@@H](O[C@H]2C[C@@](C)(OC)[C@@H](O)[C@H](C)O2)[C@H](C)[C@@H](O[C@@H]2O[C@H](C)C[C@H](N(C)C)[C@H]2O)[C@](C)(OC)C[C@@H](C)C(=O)[C@H](C)[C@@H](O)[C@]1(C)O	27 strains (levofloxacin-susceptible)	MIC50					25 µg/mL
O=C(Oc1cc(Cl)ccc1C(=O)Nc1ccc(Br)cc1)c1cnccn1	H37Rv 331/88	MIC	21 d				2 µM
COC(=O)C1=C(C)NC(=NCc2ccc(OC)cc2OC)NC1c1ccc(Cl)cc1	XDR-TB	MIC		agar			>64 µg/mL
CCn1cc(C(=O)O)c(=O)c2cc(F)c(N3CCNC(C)C3)c(F)c21	H37Ra	MIC					3.125 µM
Cc1nccc2cc3c(cc12)c1ccccc1n3C	H37Rv	MIC bound		resazurin			<6.25 µg/mL
CN[C@@H]1[C@@H](O)[C@@H](O[C@@H]2[C@@H](O)[C@H](O[C@H]3O[C@H](CN)CC[C@H]3N)[C@@H](N)C[C@H]2N)OC[C@]1(C)O	8666/2010	MIC99		broth dilution		MDR	1 µM
O=C1N(Cl)C(=O)C(c2ccc(Cl)cc2)(c2ccc(Cl)cc2)N1Cl	H37Rv	inhibition		BACTEC	12.5 µg/mL		5%
C[C@]1(COc2ccc(-c3cc(COc4cccc(F)c4)on3)cc2)Cn2cc([N+](=O)[O-])nc2O1	H37Rv	MIC		broth dilution / resazurin			0.26 µM
C[C@H]1COc2c(N3CCN(C)CC3)c(F)cc3c(=O)c(C(=O)O)cn1c23	H37Rv	MIC		agar			0.5 µg/mL
Cc1ccc2nc(C(=O)N/N=C/c3ccc(Oc4ccc(Cl)c(C)c4)cc3)[nH]c2c1	H37Rv	MIC		resazurin			1.5 µg/mL
Cc1ccccc1CN1C2=NCCN2C(=O)C2=C1CCN(Cc1ccccc1)C2	H37Rv	MIC bound					>6.25 µg/mL
COC(=O)CNC(=O)c1cnc(C2C3CC4CC(C3)CC2C4)[nH]1	H37Rv	MIC					>6.25 µg/mL
C[N+](C)(CCCCCC[N+](C)(C)CCCN1C(=O)c2cccc3cccc(c23)C1=O)CCCN1C(=O)c2cccc3cccc(c23)C1=O	H37Ra	MIC					12.5 µM
O=C(Oc1cc(Cl)ccc1C(=O)Nc1ccc(C(F)(F)F)cc1)c1cnccn1	H37Rv 331/88	MIC	14 d				1 µM
NC(=O)c1cnccn1	CA516 niacin-negative	MIC					512 µg/mL
C[C@]1(COc2ccc(N3CCC(Oc4ccc(OC(F)(F)F)cc4)CC3)cc2)Cn2cc([N+](=O)[O-])nc2O1	H37Rv	MIC		broth dilution / resazurin			0.01 µM
CC(C)(C)c1nc(C(=O)NN)c(C(C)(C)C)[nH]1	H37Rv	MIC					>6.25 µg/mL
CC(C)N=c1cc2n(-c3ccc(Cl)cc3)c3ccccc3nc-2cc1Nc1ccc(Cl)cc1	Praha 4	MIC99		broth dilution		MDR	0.5 µM
NNC(=O)CNC(=O)Nc1n[nH]c(=S)s1	H37Rv	inhibition		BACTEC	12.5 µg/mL		48%
O=C(O)CCc1cnc(C2C3CC4CC(C3)CC2C4)[nH]1	H37Rv	inhibition			6.25 µg/mL		2%
Cc1ccc(C2=NN(C(=O)c3ccncc3)C(O)(C(Cl)(Cl)Cl)C2)cc1	RGH104	MIC					252 µM
C[C@]1(COc2ccc(-c3cc(COc4ccc(OC(F)(F)F)cc4)on3)cc2)Cn2cc([N+](=O)[O-])nc2O1	ss18b non-replicating phase	MIC		broth dilution / resazurin			0.94 µM
O=C(CCCC(=O)N/N=C/c1c2ccccc2cc2ccccc12)N/N=C/c1c2ccccc2cc2ccccc12	H37Rv	MIC		BACTEC			≥12.5 µg/mL
C[C@H]1COc2c(N3CCN(C)CC3)c(F)cc3c(=O)c(C(=O)O)cn1c23	23 strains (rifampin- isoniazid-susceptible)	MIC50					0.39 µg/mL
O=C(c1ccncc1)N1N=CCC1(O)C(F)(F)F	RGH102	MIC					24.13 µM
Cc1ccc(NC(=O)/C(CC(=O)c2sc(Nc3ccccc3Cl)nc2C)=N\Nc2ccc([N+](=O)[O-])cc2[N+](=O)[O-])c(C)c1	H37Rv	inhibition		resazurin	6.25 µg/mL		11%
O=C(N/N=C/c1ccc(Oc2cccc3ccccc23)cc1)c1nc2ccc([N+](=O)[O-])cc2[nH]1	H37Rv	MIC		resazurin			25 µg/mL
C[C@]1(COc2ccc(-c3cc(-c4ccccc4C(F)(F)F)on3)cc2)Cn2cc([N+](=O)[O-])nc2O1	H37Rv	MIC		broth dilution / resazurin			0.51 µM
CCCCCCCCCCOc1cccc(NC(=O)OCC[NH+]2CCCC2)c1	My 331/88	MIC					32 µM
C[Si]1(C)O[Si](C)(C)N(N)P(=S)(Oc2ccccc2)N1N	H37Rv	inhibition		BACTEC	128 µg/mL		100%
COc1c(N2CCNC(C)C2)c(F)cc2c(=O)c(C(=O)O)cn(C3CC3)c12	22 strains (rifampin- isoniazid-resistant)	MIC90					1.56 µg/mL
CCOC(=O)c1nc(C23CC4CC(CC(C4)C2)C3)[nH]c1C1C2CC3CC(C2)CC1C3	H37Rv	inhibition			6.25 µg/mL		0%
CN1C(=O)c2ccccc2Cc2c(Cl)ncnc21	H37Rv	inhibition		BACTEC	12.5 µg/mL		5%
CC[C@@H](CO)NCCN[C@@H](CC)CO	9449/2007	MIC99		broth dilution		MDR	16 µM
CC(=O)Nc1ccc(OCC(=O)NN2C(=O)C(C)SC2c2ccc(Cl)cc2)cc1	H37Rv	EC50					>12.5 µg/mL
NNC(=O)c1ccncc1	MTB11	MIC					≤0.12 µg/mL
CCOc1ccccc1NC(=O)OCC[NH+]1CCCC1	My 331/88	MIC					>1000 µM
COC(=O)C1=COC(C)C2Cn3ccc4c5ccccc5nc-4c3CC12	H37Rv	MIC bound		BACTEC			>12.5 µg/mL
CC(=O)Nc1ccc(OCC(=O)NN2C(=O)CSC2c2ccccc2[N+](=O)[O-])cc1	H37Rv	inhibition			12.5 µg/mL		0%
CCCCCCOc1ccc(NC(=O)OCC[NH+]2CCCC2)cc1	My 331/88	MIC					32 µM
CCOC(=O)c1cnc(C2CCCC2)[nH]1	H37Rv	MIC					>6.25 µg/mL
CC1OC(CC(=O)O)CC2=C1C(=O)c1c(O)cccc1C2=O	H37Ra	MIC					6.25 µM
COc1ccc2c(c1)C[C@]1(C)[C@@H](C)CCC3C(C)(C)CCC[C@]31O2	H37Rv	EC50					<6.25 µg/mL
Cc1cc(N/N=C(/c2ccccc2)c2ccccn2)nc2ccccc12	H37Rv	inhibition		BACTEC	12.5 µg/mL		98%
CC(=O)Nc1ccc(OCC(=O)N/N=C/c2ccc(N(C)C)cc2)cc1	H37Rv	inhibition			12.5 µg/mL		20%
NNC(=O)CCc1cnc(C2CCCCC2)[nH]1	H37Rv	inhibition			6.25 µg/mL		31%
O=C(O)c1cn(C2CC2)c2c(Cl)c(N3C[C@@H]4CCCN[C@@H]4C3)c(F)cc2c1=O	Susceptible	MIC50					0.06 µg/mL
COc1ccc(C2SCC(=O)N2NC(=O)COc2ccc(NC(C)=O)cc2)cc1OC	H37Rv	EC50					>12.5 µg/mL
COC(=O)C1=C(C)NC(Nc2cccc(C#N)c2)=NC1c1ccc(Cl)cc1	H37Rv	MIC		agar			8 µg/mL
CCN(CC)c1cc2oc3cc(N)cc(=N)c-3nc2cc1C	ETA-R	MIC					0.4 µg/mL
COC(=O)C1=C(C)NC(Nc2ccc([N+](=O)[O-])cc2O)=NC1c1ccc(Cl)cc1	H37Rv	MIC		agar			8 µg/mL
CCOC(=O)c1ccc(C(=O)OC)c(S(=O)(=O)NC(=O)Nc2nccc(C)n2)c1	H37Rv	MIC					>80 µg/mL
CN[C@@H]1[C@H](O[C@H]2[C@H](O[C@H]3[C@H](O)[C@@H](O)[C@H](N=C(N)N)[C@@H](O)[C@@H]3N=C(N)N)O[C@@H](C)[C@]2(O)C=O)O[C@@H](CO)[C@H](O)[C@H]1O	Praha 131	MIC99		broth dilution		MDR	>32 µM
CCN(CC)CCOC(=O)Cc1cc(C)cc2c(=O)cc(-c3ccccc3)oc12	H37Rv	MIC bound		BACTEC			>12.5 µg/mL
CCc1ccc(OCc2cn(-c3ccc(OC[C@@]4(C)Cn5cc([N+](=O)[O-])nc5O4)cc3)nn2)cc1	ss18b non-replicating phase	MIC		broth dilution / resazurin			16.8 µM
O=S1(=O)CC2C1C1(Cl)OC2(Cl)c2ccccc21	H37Rv	MIC bound		BACTEC			>12.5 µg/mL
COC(=O)C1=C(C)NC(Nc2cccc(Br)c2)=NC1c1ccc(Cl)cc1	XDR-TB	MIC		agar			>64 µg/mL
CCS[C@H]1[C@H](N=[N+]=[N-])[C@@H](CO)O[C@H]1n1cnc2c(N)ncnc21	H37Rv	MIC bound		BACTEC			>12.5 µg/mL
NNC(=O)c1ccncc1	Praha 1	MIC99		broth dilution		MDR	16 µM
CC1(C)N=C(N)N=C(N)N1c1ccc(CNC(=O)Nc2ccc(S(=O)(=O)F)c(Cl)c2)c(Cl)c1	H37Rv	inhibition		BACTEC	12.5 µg/mL		79%
O=C(Oc1ccc(Br)cc1C(=O)Nc1ccc(C(F)(F)F)cc1)c1cnccn1	multidrug resistant 234/2005	MIC	21 d				0.5 µM
O=C(c1ccncc1)N1N=C(c2ccccc2)CC1(O)C(F)(F)F	RGH102	MIC					>298.5 µM
NCC[C@H](O)C(=O)N[C@@H]1C[C@H](N)[C@@H](O[C@H]2O[C@H](CN)[C@@H](O)[C@H](O)[C@H]2O)[C@H](O)[C@H]1O[C@H]1O[C@H](CO)[C@@H](O)[C@H](N)[C@H]1O	Praha 1	MIC99		broth dilution		MDR	0.5 µM
Cn1nc(C(=O)NN)c(=O)[nH]c1=O	H37Rv	MIC bound		BACTEC			>12.5 µg/mL
O=C(N/N=C/c1ccc(Oc2ccc(Cl)cc2)cc1)c1nc2ccccc2[nH]1	H37Rv	MIC		resazurin			3.125 µg/mL
O=C(c1ccncc1)N1N=C(c2cccs2)CC1(O)C(F)(F)F	RGH101	MIC					>293 µM
CC(C)(C)n1c(=O)n(C(=O)C(Cl)(Cl)Cl)n(C(=O)C(Cl)(Cl)Cl)c1=O	H37Rv	inhibition		BACTEC	12.5 µg/mL		0%
COc1ccc(/C=N/NC(=O)c2nc(C3C4CC5CC(C4)CC3C5)[nH]c2C2C3CC4CC(C3)CC2C4)cc1	H37Rv	inhibition			6.25 µg/mL		0%
CNC(=O)OCC1=C([Si](C)(C)C)C(=O)C(OC)=C(OC)C1=O	H37Rv	inhibition		resazurin	6.25 µg/mL		-6%
COC(=O)c1ccc(Br)cc1S(=O)(=O)NC(=O)Nc1nccc(C)n1	H37Rv	MIC					40 µg/mL
Cc1ccc2nc(C(=O)N/N=C/c3ccc(Oc4cccc5ccccc45)cc3)[nH]c2c1	H37Rv	MIC		resazurin			12.5 µg/mL
CCCCCCCCCOc1ccccc1NC(=O)OCC[NH+]1CCCC1	My 331/88	MIC					16 µM
O=C(Oc1ccc(Cl)cc1C(=O)Nc1ccc(Cl)c(Cl)c1)c1cnccn1	extensively drug resistant Praha 131	MIC	14 d				0.5 µM
O=C(O)c1nc(C2CCCC2)[nH]c1C1CCCC1	H37Rv	MIC					>6.25 µg/mL
O=C(Oc1ccc(Cl)cc1C(=O)Nc1ccc(Br)cc1)c1cnccn1	H37Rv 331/88	MIC	21 d				2 µM
COc1ccc(-c2c(C)c(C(=O)O)nc(-c3ccc4c(O)c(OC)c5c(c4n3)=NC(C)(C)N=5)c2N)c(O)c1OC	H37Ra	MIC					12.5 µM